{
  "source": "patent US6110962A",
  "about": "“11-aryl-benzo[B]naphtho[2,3-D]furans and 11-aryl-benzo[B]naphtho[2,3-D]thiophenes useful in the treatment of insulin resistance and hyperglycemia” (American Home Products Corporation, priority 1999, dated 2000)",
  "tested_on": "rat hepatic microsomal PTPases",
  "experiment": "Inhibition of tri-phosphorylated insulin receptor dodecaphosphopeptide dephosphorylation by rat hepatic PTPases",
  "settings": "PTPase activity, compound at 50 μM",
  "data": [
    {"molecule": "O=[As]c1ccccc1", "note": "(stereo not shown)", "values": [
      {"measurement": "% Change from Control", "value": -57.06, "unit": "%"}
    ]}
  ]
}
